The series relates to HIV-1 (wildtype IIIB). Type of series: cell-based. The note with it: selectivity index, ratio of CC50 to IC50. The method, then:
A rapid, sensitive and automated assay procedure was used for the in vitro evaluation of anti-HIV agents. An HIV-1 (wildtype IIIB) transformed T4-cell line, MT-4, which was previously shown (Koyanagi et al., Int. J Cancer, 36, 445-451, 1985) to be highly susceptible to and permissive for HIV infection, served as the target cell line. Inhibition of the HIV-induced cytopathic effect was used as the end point. […] The percent protection achieved by the compound in HIV-infected cells was calculated by the following formula: [formula]
whereby (ODT)HIV is the optical density measured with a given concentration of the test compound in HIV-infected cells; (ODC)HIV is the optical density measured for the control untreated HIV-infected cells; (ODC)MOCK is the optical density measured for the control untreated mock-infected cells; all optical density values were determined at 540 nm. […] The ratio of CC50 to IC50 was defined as the selectivity index (SI).
Turning to `N#Cc1ccc(Nc2nc(N)nc(Nc3c(Br)cc(Br)cc3Br)n2)cc1` [Compound 72], the SI is given as 3259.
With `Cc1cc(Br)c(Nc2nc(Nc3ccc(C#N)cc3)nc(Nc3ccc(C#N)cc3)n2)c(Br)c1` [Compound 74, N,-[6-[(2,6-dibromo-4-methylphenyl)amino]-1,3,5-triazine-2,4-diyl]bis[4-amino-benzonitrile]], the SI turned out to be 37.
Take `Cc1ccc(C)c(Oc2nc(N)nc(Nc3ccc(C#N)cc3)n2)c1` [Compound 2, 4-[[4-amino-6-(2,5-dimethylphenoxy)-1,3,5-triazin-2-yl]amino]benzonitrile]: the SI was 10750.
Regarding `N#Cc1ccc(Nc2nc(N)nc(Oc3cccc4[nH]ccc34)n2)cc1` [Compound 83], the SI is listed as 126.
On to `N#Cc1ccc(Nc2nc(N)nc(Oc3c(Cl)cc(Cl)cc3Cl)n2)cc1` [Compound 30], for which the SI is given as 26488.
For `Cc1c(Br)c(C)c(Br)c(Oc2nc(N)nc(Nc3ccc(C#N)cc3)n2)c1Br` [Compound 50], the SI amounted to 139.
As to `N#Cc1ccc(Nc2nc(N)nc(Oc3c(Cl)cc(F)cc3Cl)n2)cc1` [Compound 45], the SI was 7258.
As for `Cc1cc(N)cc(C)c1Oc1nc(N)nc(Nc2ccc(C#N)cc2)n1` [Compound 78], the SI came out at 6.
`Cc1cc(I)cc(C)c1Oc1nc(N)nc(Nc2ccc(C#N)cc2)n1` [Compound 60]: the SI came out at 15172.
For `N#Cc1ccc(Nc2nc(N)nc(Sc3cc(Cl)c(Cl)cc3Cl)n2)cc1` [Compound 56], the SI is on record as 13059.
`Cc1c(Cl)c(C)c(Br)c(Oc2nc(N)nc(Nc3ccc(C#N)cc3)n2)c1Br` [Compound 48]: the SI is on record as 456.
As to `N#Cc1ccc(Nc2nc(N)nc(Sc3ccc(Cl)cc3Cl)n2)cc1` [Compound 54, 4-[[4-amino-6-[(2,4-dichlorophenyl)thio]-1,3,5-triazin-2-yl]amino]benzonitrile], the SI was determined as 13349.
With `Cc1cc(C)c(Nc2nc(N)nc(Nc3ccc(C#N)cc3)n2)c(Cl)c1` [Compound 65, 4-[[4-amino-6-[(2-chloro-4,6-dimethylphenyl)amino]-1,3,5-triazin-2-yl]amino]-benzonitrile] the figure was 80824; with `Cc1c(Cl)cc(N)c(Oc2nc(N)nc(Nc3ccc(C#N)cc3)n2)c1Cl` [Compound 81], over 37.
With `Cc1cc(C)c(Sc2nc(N)nc(Nc3ccc(C#N)cc3)n2)c(C)c1` [Compound 58], the SI came out at 16244.
Take `Cc1cc(Nc2nc(N)nc(Nc3ccc(C#N)cc3)n2)c(Cl)cc1F` [Compound 66]: the SI was over 1037.
In the case of `CC(=O)c1ccc(C)cc1Nc1nc(N)nc(Nc2ccc(C#N)cc2)n1` [Compound 13], the SI was over 386.
On to `COc1cccc(OC)c1Oc1nc(N)nc(Nc2ccc(C#N)cc2)n1` [Compound 46], for which the SI is on record as over 3205.
`Cc1cc(C)c(Nc2nc(NO)nc(Nc3ccc(C#N)cc3)n2)c(C)c1` [Compound 11, 4-[[4-(hydroxyamino)-6-[(2,4,6-trimethylphenyl)amino]-1,3,5-triazin-2-yl]amino]-benzonitrile]: the SI is 4480.
As for `N#Cc1ccc(Nc2nc(NO)nc(Nc3c(Cl)cc(Cl)cc3Cl)n2)cc1` [Compound 23, 4-[[4-(hydroxyamino)-6-[(2,4,6-trichlorophenyl)amino]-1,3,5-triazin-2-yl]amino]-benzonitrile], the SI turned out to be 7614.
Take `N#Cc1ccc(Nc2nc(N)nc(NNc3c(Cl)cc(Cl)cc3Cl)n2)cc1` [Compound 21]: the SI came out at 27789.
Under `Cc1cccc(Cl)c1Nc1nc(N)nc(Nc2ccc(C#N)cc2)n1` [Compound 7, 4-[[4-amino-6-[(2-chloro-6-methylphenyl)amino]-1,3,5-triazin-2-yl]amino]benzonitrile] stands 10187; under `Cc1ccc(Cl)c(C)c1Nc1nc(NO)nc(Nc2ccc(C#N)cc2)n1` [Compound 31], 1980; under `Cc1ccc(Cl)c(C)c1Nc1nc(N)nc(Nc2ccc(C#N)cc2)n1` [Compound 28], 9106.
With `COC(=O)c1cc(OC)c(OC)c(OC)c1Nc1nc(N)nc(Nc2ccc(C#N)cc2)n1` [Compound 82], the SI is reported as 67.
On to `CC(=O)c1cc(C)c2c(c1Oc1nc(N)nc(Nc3ccc(C#N)cc3)n1)CCC2` [Compound 84, 4-[[4-[(5-acetyl-2,3-dihydro-7-methyl-1H-inden-4-yl)oxy]-6-amino-1,3,5-triazin-2-yl]amino]benzonitrile], for which the SI is 45129.
Turning to `N#Cc1ccc(Nc2nc(N)nc(Oc3c(Br)cc(Br)cc3Br)n2)cc1` [Compound 40, 4-[[4-amino-6-(2,4,6-tribromophenoxy)-1,3,5-triazin-2-yl]amino]benzonitrile], the SI is over 1851.
With `N#Cc1ccc(Nc2nc(N)nc(Sc3ccc(F)cc3F)n2)cc1` [Compound 57], the SI was over 6711.
For the molecule `CC(=O)c1cc(C)c(Oc2nc(N)nc(Nc3ccc(C#N)cc3)n2)c(C)c1` [Compound 35, 4-[[4-(4-acetyl-2,6-dimethylphenoxy)-6-amino-1,3,5-triazin-2-yl]amino]benzonitrile], the SI was determined as 24712.
As to `Cc1cc(Cl)c(C)c(C)c1Oc1nc(N)nc(Nc2ccc(C#N)cc2)n1` [Compound 52], the SI was determined as 639.
With `Cc1cc(C)c(N=Nc2nc(N)nc(Nc3ccc(C#N)cc3)n2)c(C)c1` [Compound 69, 4-[[4-amino-6-[(2,4,6-trimethylphenyl)azo]-1,3,5-triazin-2-yl]aamino]benzonitrile], the SI is on record as over 1547.
With `N#Cc1ccc(Nc2nc(NO)nc(Sc3c(Cl)cccc3Cl)n2)cc1` [Compound 20] the figure was 3726; with `N#Cc1ccc(Nc2nc(N)nc(Nc3c(Cl)cccc3Cl)n2)cc1` [Compound 10], 2022; with `CC(C)c1cc(Br)c(Nc2nc(N)nc(Nc3ccc(C#N)cc3)n2)c(Br)c1` [Compound 77, 4-[[4-amino-6-[[2,6-dibromo-4-(1-methylethyl)phenyl]amino]-1,3,5-triazin-2-yl]-amino]benzonitrile], 17431.
Under `N#Cc1ccc(Nc2nc(N)nc(Nc3c(Cl)cc(Cl)cc3C(F)(F)F)n2)cc1` [Compound 71, 4-[[4-amino-6-[[2,4-dichloro-6-(trifluoromethyl)phenyl]amino]-1,3,5-triazin-2-yl]-amino]benzonitrile] stands 860; under `N#Cc1ccc(Nc2nc(N)nc(Oc3c(F)c(F)c(O)c(F)c3F)n2)cc1` [Compound 80], over 1.
Consider `CCc1cccc(C)c1Nc1nc(N)nc(Nc2ccc(C#N)cc2)n1` [Compound 16, 4-[[4-amino-6-[(2-ethyl-6-methylphenyl)amino]-1,3,5-triazin-2-yl]amino]benzonitrile], for which the SI is listed as 1372.
As to `N#Cc1ccc(Nc2nc(N)nc(Oc3ccc(Cl)cc3Cl)n2)cc1` [Compound 38], the SI is over 14084.
Under `Cc1cc([N+](=O)[O-])cc(C)c1Oc1nc(N)nc(Nc2ccc(C#N)cc2)n1` [Compound 41, 4-[[4-amino-6-(4-nitro-2,6-dimethylphenoxy)-1,3,5-triazin-2-yl]amino]benzonitrile] stands 6102; under `CCc1cc(Br)cc(CC)c1Nc1nc(N)nc(Nc2ccc(C#N)cc2)n1` [Compound 64], 3393; under `N#Cc1ccc(Nc2nc(N)nc(Oc3c(Cl)c(Cl)c(Cl)c(Cl)c3Cl)n2)cc1` [Compound 42], over 303.
